Test results from article PMC7034945 (RSC Advances, 2019).

Conditions: HPLC

Substance: (S)-N-(1-((4-Methoxyphenyl)(methyl)amino)-1-oxo-3-phenylpropan-2-yl)-3-(1-(3-(thiophen-3-yl)propyl)-1H-1,2,3-triazol-4-yl)benzamide [III-15h]
- water solubility pH = 2.0, test 1 (pH 2.0 phosphate buffer, first test): 5.94 μg mL^−1
- water solubility pH = 2.0, test 2 (pH 2.0 phosphate buffer, second test): 5.85 μg mL^−1
- water solubility pH = 7.0, test 1 (pH 7.0, first test): 3.23 μg mL^−1
- water solubility pH = 7.0, test 2 (pH 7.0, second test): 3.29 μg mL^−1
- water solubility pH = 7.4, test 1 (pH 7.4 phosphate buffer, first test): 3.01 μg mL^−1
- water solubility pH = 7.4, test 2 (pH 7.4 phosphate buffer, second test): 3.10 μg mL^−1
